# Assay results reported in the supplement of paper PMC10981050.
# Where “and” joins values, the source holds several entries; their conditions need not be identical. Equal values may be shown once. Only a part is listed here, and it is no random draw.
# Experiments:
# Assay in all cases: cell viability relative to vehicle control; higher = less cytotoxic
# Conditions in all cases: 10 µM
# K562 = test system: K562
# Summary of the method: (§1)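 Screening covered the Selleck bioactive, kinase and epigenetic probe libraries, less identity-inconsistent compounds, on CRISPR-edited mutant clones and isogenic wild-type clones of four leukaemia lines. Cells, at 2000 per well in 50 µL medium, received a single 10 µM acoustically dispensed dose. After 48 h the supernatant was removed and CellTiter-Glo luminescence was read. Viability was analysed in Genedata Screener as percent of the on-plate vehicle control.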
# MARIMO = test system: MARIMO
# Summary of the method: as §1
# MOLM14 = test system: MOLM14
# Summary of the method: as §1
# OCI-AML2 = test system: OCI-AML2
# Summary of the method: as §1
structure (smiles),measurement,setting,value
COc1ccc(C(=O)CBr)cc1 [PTP Inhibitor II],cell viability,K562; SRSF2 genotype: SRSF2 P95H/wt,101% and 105%
same,cell viability,K562; SRSF2 genotype: SRSF2 wt/wt,103%
same,cell viability,MARIMO; SRSF2 genotype: SRSF2 P95H/wt,97.5%
same,cell viability,MARIMO; SRSF2 genotype: SRSF2 wt/wt,107%
same,cell viability,MOLM14; SRSF2 genotype: SRSF2 P95H/wt,94.9%
same,cell viability,MOLM14; SRSF2 genotype: SRSF2 wt/wt,105%
same,cell viability,OCI-AML2; SRSF2 genotype: P95H/wt,101%
same,cell viability,OCI-AML2; SRSF2 genotype: wt/wt,99.6%
